From PubChem BioAssay AID1721 (National Center for Advancing Translational Sciences (NCATS), 2009)
The entries are a selection whose mix differs from that of the whole data set. The source made the active and inactive calls. The call rests on the fitted dose curve; in most records, active means well fitted inhibition curve with a large enough effect; inconclusive means small, poorly fitted or top-dose-only effect, or another doubt; inactive means no such curve, though single readings can be large or run the other way.

Chains of the proteins cited; added tags and fusions are not shown.
UniProt Q27686, whole entry: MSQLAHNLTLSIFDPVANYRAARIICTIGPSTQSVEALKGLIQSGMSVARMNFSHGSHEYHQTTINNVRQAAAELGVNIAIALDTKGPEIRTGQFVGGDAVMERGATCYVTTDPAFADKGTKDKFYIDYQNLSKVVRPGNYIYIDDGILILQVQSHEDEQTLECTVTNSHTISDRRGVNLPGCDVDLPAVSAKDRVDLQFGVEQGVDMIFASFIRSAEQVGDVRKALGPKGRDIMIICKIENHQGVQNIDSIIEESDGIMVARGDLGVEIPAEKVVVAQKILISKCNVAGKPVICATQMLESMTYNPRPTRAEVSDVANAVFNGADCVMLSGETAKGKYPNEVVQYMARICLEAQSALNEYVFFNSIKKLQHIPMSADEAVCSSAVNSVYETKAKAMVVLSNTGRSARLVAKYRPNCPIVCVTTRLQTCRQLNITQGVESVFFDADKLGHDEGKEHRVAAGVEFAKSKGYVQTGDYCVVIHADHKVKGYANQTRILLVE

What follows are compounds tested against Pyruvate kinase (Leishmania mexicana) (UniProt Q27686) (assay: qHTS Assay for Inhibitors of Leishmania Mexicana Pyruvate Kinase (LmPK)). Settings: purified LmPK, Kinase-Glo ATP luminescence, 1 h; at 57.5 µM (top of the series).
Source text: NIH Chemical Genomics Center [NCGC] Malcolm Walkinshaw, Hugh Morgan, Linda Gilmore University of Edinburgh, UK MLPCN Grant: 1 R03 MH085697-01 NCGC Assay Overview: Pyruvate kinase (L. Mexicana) (LmPK) enzyme was supplied as a highly purified (>95% pure) sulphate-free preparation from University of Edinburgh, UK and assayed for its ability to generate ATP from ADP using phosphoenolpyruvate (PEP) as a substrate. ATP generation was detected in a coupled reaction by luciferase-mediated luminescence, an ATP-dependent process. […] The enzyme was assayed at an intermediate level of activity to screen for both inhibitors and activators.
NCGC Assay Protocol Summary: Three uL of enzyme mix (kept on ice) in assay buffer (50 mM Imidazole pH7.2, 50 mM KCl, 7 mM MgCl2, 0.01% Tween 20, 0.05% BSA) containing PEP (0.5 mM final concentration) and LmPK (0.1 nM final concentration) was dispensed into white solid bottom 1,536 well microtiter plates. 23 nL of compound were delivered by a pin tool and 1 uL of ADP mix in assay buffer (r.t; 0.1 mM final ADP concentration) was added. Plates were incubated at room temperature for 1 hour. Two uL of detection mix (Kinase-Glo, Promega; at 4 degree Celsius protected from light) was added and luminescence read by a ViewLux (Perkin Elmer) at 1 second exposure/plate. Data were normalized to the uninhibited and AC100 inhibition (no enzyme). To monitor activation, the first column contained a five-fold concentration of LmPK (0.5 nM).
On the % scale 0 is the no-effect control and ±100 the full control effect.

Question: Which activity change, negative = inhibition does the source give for `CCN(CC)CCCOC(=O)C(O)(c1ccccc1)c1ccccc1` here?
Answer: Its activity change, negative = inhibition is inactive: 3.72%.

Question: How did the activity change, negative = inhibition turn out when `CN1CCCCC1COC(=O)C1(O)c2ccccc2CCc2ccccc21` (centres undefined) was run?
Answer: The activity change, negative = inhibition was inactive: -0.0792%.

Question: With `CCN(CC)CCCOC(=O)C(O)(c1ccccc1)C1CCCCC1` (centres undefined) as the compound, how does the activity change, negative = inhibition read?
Answer: The activity change, negative = inhibition was inactive: 3.58%.

Question: Which activity change, negative = inhibition does the source give for `O=C(OCCN1CCN(CCOCc2ccccc2)CC1)C(O)(c1ccccc1)c1ccccc1` here?
Answer: Its activity change, negative = inhibition is inactive: 2.89%.

Question: For `CN(C)CCOC(=O)C(O)(c1ccccc1)C1CCCCC1` (centres undefined), which activity change, negative = inhibition is on record?
Answer: The activity change, negative = inhibition was inactive: 3.85%.

Question: `O=[N+]([O-])c1ccc(OP2(=O)COCCO2)cc1` (centres undefined) was tested. Which activity change, negative = inhibition did it give?
Answer: The activity change, negative = inhibition was inactive: -2.35%.

Question: For `CCN(CC)CC(O)COC(=O)C(O)(c1ccccc1)C1CCCCC1` (centres undefined), which activity change, negative = inhibition is on record?
Answer: Its activity change, negative = inhibition is inactive: 0.466%.

Question: `O=C(OCCCN1CCCC1)C(O)(c1ccccc1)C1CCCCC1` (centres undefined) was tested. Which activity change, negative = inhibition did it give?
Answer: Its activity change, negative = inhibition is inactive: 1.45%.

Question: How did the activity change, negative = inhibition turn out when `CN(C)CCOC(=O)C(O)(c1ccccc1)C1CCCC1` (centres undefined) was run?
Answer: Its activity change, negative = inhibition is inactive: 0.515%.
